From patent US11364214B2, “Compositions and methods for treating eczema” (Dermala Inc., priority 2016, dated 2022)

Tested on: HaCaT human keratinocyte cell line stimulated with SpA
Assay: TNF-α release from HaCaT keratinocytes stimulated with Staphylococcal protein A (SpA), ELISA
Conditions: SpA 10 μg/mL, compound 0-100 mM applied prior and/or post stimulation

glyceryl tripropionate-tripropionin was tested, and the “inflammatory responses (TNF-α release) after SpA stimulation” value was “displaying both the anti-S. aureus and anti-inflammatory properties”.
